By UniProt entry, the sequences of proteins in these tests, tags left out. Where a name states a change or a piece, a line headed by the entry shows the natural chain unless it says otherwise.
UniProt P15917: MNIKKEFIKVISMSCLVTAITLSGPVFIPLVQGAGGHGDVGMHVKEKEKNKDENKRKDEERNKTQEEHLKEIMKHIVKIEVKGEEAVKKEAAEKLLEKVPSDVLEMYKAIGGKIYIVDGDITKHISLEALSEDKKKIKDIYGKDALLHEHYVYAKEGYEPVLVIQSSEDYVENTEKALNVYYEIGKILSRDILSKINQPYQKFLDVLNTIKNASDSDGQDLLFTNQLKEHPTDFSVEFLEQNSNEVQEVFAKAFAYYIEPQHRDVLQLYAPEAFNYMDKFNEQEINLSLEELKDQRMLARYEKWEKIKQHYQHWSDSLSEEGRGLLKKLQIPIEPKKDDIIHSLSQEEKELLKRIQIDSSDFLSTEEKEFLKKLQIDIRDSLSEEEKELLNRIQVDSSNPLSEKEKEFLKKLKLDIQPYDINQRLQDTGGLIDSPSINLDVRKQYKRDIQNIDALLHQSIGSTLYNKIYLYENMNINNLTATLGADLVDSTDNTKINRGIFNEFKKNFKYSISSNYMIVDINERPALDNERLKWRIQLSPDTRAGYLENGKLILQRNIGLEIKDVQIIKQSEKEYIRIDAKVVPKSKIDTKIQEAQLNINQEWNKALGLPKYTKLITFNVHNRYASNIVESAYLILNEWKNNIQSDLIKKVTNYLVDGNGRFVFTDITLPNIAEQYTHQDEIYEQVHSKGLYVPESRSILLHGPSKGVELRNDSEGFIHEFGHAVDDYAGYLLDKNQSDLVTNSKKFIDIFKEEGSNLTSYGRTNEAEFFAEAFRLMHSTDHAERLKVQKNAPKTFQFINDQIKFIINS

In patent US6955891B2 (priority 2002, dated 2005):

Key:
[1] = biological target: T1, Bacillus anthracis lethal factor (Bacillus anthracis, UniProt P15917); experiment: Lethal factor HPLC-based cleavage assay
[2] = Oxidation stability of the labeled peptide (methionine sidechain to sulfoxide)
[3] = biological target: T1, Bacillus anthracis lethal factor; experiment: Lethal factor cleavage of FRET analogs, increase in fluorescence; details: fluorescein/QSY-9 pair

(Flu)MPKKKPTP IQLNPAPD-NH2
levels of turnover ([1]; peptide 100 μM, ~1 μM lethal factor, 2-4 hours at 30° C., metal ion supplemented buffer): 15-30% | fluorescein-mediated oxidation of methionine to sulfoxide, conversion ([2]; in solution in the presence of light, within one hour): up to 50%

(Flu)NleKKKKVLP IQLNAATDKGG-NH2
turnover rate compared with the MEK1-derived peptides (in words) [1]: significantly higher turnover rate

(Flu)NleKKKKVLPIQLNAATDK(QSY-9)GG-NH2
signal of the FRET peptide [3]: did not produce a good signal

(Flu)NlePKKKPTP IQLNPAPDKGG-NH2
stability / propensity towards oxidation [2]: stable and showed no propensity towards oxidation

(QSY-9)NleKKKKVLPIQLNAATDK(Flu)GG-NH2
signal of the FRET peptide [3]: did not produce a good signal
